Experiments:
[1] = system: Trichomonas vaginalis ATCC30236; test: In vitro MIC
[2] = system: Aspergillus fumigatus ATCCMYA-4609; test: In vitro MIC (CLSI)
[3] = system: Bacterioides fragilis ATCC25285; test: In vitro MIC (CLSI)
[4] = system: Clostridium difficile ATCC700057; test: In vitro MIC (CLSI)
[5] = system: Enterobacter cloacae WX-E. cloacae001; test: In vitro MIC (CLSI)
[6] = system: Enterobacter cloacae WX-E. cloacae002; test: In vitro MIC (CLSI)
[7] = system: Enterobacter cloacae WX-E. cloacae003; test: In vitro MIC (CLSI)
[8] = system: Enterococcus faecalis ATCC51575; test: In vitro MIC (CLSI)
[9] = system: Helicobacter pylori ATCC43504; test: In vitro MIC (CLSI)
[10] = system: Helicobacter pylori ATCC700392; test: In vitro MIC (CLSI)
[11] = system: Helicobacter pylori ATCC700824; test: In vitro MIC (CLSI)
[12] = system: Klebsiella pneumoniae WX-KP013; test: In vitro MIC (CLSI)
[13] = system: Klebsiella pneumoniae WX-KP021; test: In vitro MIC (CLSI)
[14] = system: Klebsiella pneumoniae WX-KP037; test: In vitro MIC (CLSI)
[15] = system: Klebsiella pneumoniae WX-KP041; test: In vitro MIC (CLSI)
[16] = system: Morganella morgani WX-M. morgani001; test: In vitro MIC (CLSI)
[17] = system: Neisseria gonorrhoeae 35/02; test: In vitro MIC (CLSI)
[18] = system: Neisseria gonorrhoeae ATCC49226; test: In vitro MIC (CLSI)
[19] = system: Neisseria gonorrhoeae ATCC700825; test: In vitro MIC (CLSI)
[20] = system: Peptostreptococcus anaerobius ATCC27337; test: In vitro MIC (CLSI)
[21] = system: Propionibacterium acnes ATCC6919; test: In vitro MIC (CLSI)
[22] = system: Staphylococcus epidermidis ATCC35983; test: In vitro MIC (CLSI)
[23] = system: Streptococcus pneumoniae WX-SP001; test: In vitro MIC (CLSI)
[24] = system: Streptococcus pneumoniae WX-SP002; test: In vitro MIC (CLSI)

O=[As]c1cc(F)c(F)c(F)c1 (stereo not shown) was tested, and the “Minimum Inhibitory Concentration (MIC)” value [1] was 0.125 µg/mL, the “Minimum Inhibitory Concentration (MIC)” value [2] was 2 µg/mL and the “Minimum Inhibitory Concentration (MIC)” value [3] was 0.25 µg/mL. The “Minimum Inhibitory Concentration (MIC)” value [4] was 0.5 µg/mL, the “Minimum Inhibitory Concentration (MIC)” value [5] was 0.25 µg/mL and the “Minimum Inhibitory Concentration (MIC)” value [6] was 2 µg/mL. The “Minimum Inhibitory Concentration (MIC)” value [7] was 0.25 µg/mL, the “Minimum Inhibitory Concentration (MIC)” value [8] was 0.25 µg/mL and the “Minimum Inhibitory Concentration (MIC)” value [9] was 0.25 µg/mL. For the same compound, the “Minimum Inhibitory Concentration (MIC)” value [10] was 0.25 µg/mL, the “Minimum Inhibitory Concentration (MIC)” value [11] was 0.25 µg/mL and the “Minimum Inhibitory Concentration (MIC)” value [12] was 1 µg/mL. The “Minimum Inhibitory Concentration (MIC)” value [13] was 0.5 µg/mL, the “Minimum Inhibitory Concentration (MIC)” value [14] was 0.25 µg/mL and the “Minimum Inhibitory Concentration (MIC)” value [15] was 1 µg/mL. For the same compound, the “Minimum Inhibitory Concentration (MIC)” value [16] was 2 µg/mL, the “Minimum Inhibitory Concentration (MIC)” value [17] was 0.125 µg/mL and the “Minimum Inhibitory Concentration (MIC)” value ([18]; Neisseria gonorrhoeae ATCC49226, first part of Table 12) was 0.125 µg/mL. The “Minimum Inhibitory Concentration (MIC)” value ([18]; Neisseria gonorrhoeae ATCC49226, last part of Table 12) was 0.06 µg/mL, the “Minimum Inhibitory Concentration (MIC)” value [19] was no more than 0.06 µg/mL and the “Minimum Inhibitory Concentration (MIC)” value [20] was 0.25 µg/mL. For the same compound, the “Minimum Inhibitory Concentration (MIC)” value [21] was 0.5 µg/mL, the “Minimum Inhibitory Concentration (MIC)” value [22] was no more than 0.002 µg/mL and the “Minimum Inhibitory Concentration (MIC)” value [23] was 0.125 µg/mL. For the same compound, the “Minimum Inhibitory Concentration (MIC)” value [24] was 0.25 µg/mL.
